Compound potency records, mixed from different reports. Data source: NIAID ChemDB in PubChem.

Common to all: tests in culture; organism: Aspergillus flavus

MIC50, MIC90 and the like: level of inhibition, or share of isolates inhibited.

SMILES,strain or isolate,method,read-out,result
C[C@@H](c1nc(-c2ccc(C#N)cc2)cs1)[C@](O)(Cn1cncn1)c1cc(F)ccc1F,,,MIC90,1–16 µg/mL
CN(C)C1=NC(=O)/C(=C/c2ccccc2)S1,ATCC 9170,broth dilution,MIC100,>250 µg/mL
C/C(=N\NC(=S)Nc1ccccc1)c1ccc(-n2ccnc2)cc1,,broth dilution,MIC50,>745 µM
CCc1ccc(O)cc1,,agar,MIC50,132 µg/mL
CC(C)=CCC/C(C)=C/CO,NRRL 501,broth dilution,MFC,288 µg/mL
CN(C/C=C/C#CC(C)(C)C)Cc1cccc2ccccc12,ATCC 9170,broth dilution,MIC100,0.78 µg/mL
O=C1C=C(N2CCOCC2)C(=O)c2ccccc21,MTCC 277,broth dilution,MIC100,250 µg/mL
COc1ccc([Se][Se]c2ccc(OC)cc2)cc1,,broth dilution,MFC,>64 µg/mL
O=C(N/N=C\n1ccnc1)c1ccc([N+](=O)[O-])cc1,,broth dilution,MIC50,484.2 µM
CN(C)C1=NC(=O)/C(=C/c2ccc([N+](=O)[O-])cc2)S1,ATCC 9170,broth dilution,MIC100,>250 µg/mL
C/C(=N\NC(N)=S)c1ccc(-n2ccnc2)cc1,,broth dilution,MIC50,>964 µM
Clc1ccc([Se][Se]c2ccc(Cl)cc2)cc1,,broth dilution,MFC,>64 µg/mL
C/C(=N\NC(=O)c1ccccc1)c1ccc(-n2ccnc2)cc1,,broth dilution,MIC50,>821.4 µM
CC1=C(Nc2ccccc2)C(=O)c2ccccc2C1=O,MTCC 277,broth dilution,MIC100,125 µg/mL
COc1cc(C(=O)O)cc(OC)c1O,,agar,MIC50,>1000 µg/mL
Nc1[nH]c(=O)ncc1F,,,MIC90,>64 µg/mL
OC(Cn1cncn1)(Cn1cncn1)c1ccc(F)cc1F,CCAM 080001,broth dilution,MFC100,5 µg/mL
COc1cccc(OC)c1O,,agar,MIC100,>1000 µg/mL
CCCCCOc1ccc(-c2ccc(-c3ccc(C(=O)N[C@H]4C[C@@H](O)[C@@H](O)NC(=O)[C@@H]5[C@@H](O)[C@@H](C)CN5C(=O)[C@H]([C@H](C)O)NC(=O)[C@H]([C@H](O)[C@@H](O)c5ccc(O)cc5)NC(=O)[C@@H]5C[C@@H](O)CN5C(=O)[C@H]([C@H](C)O)NC4=O)cc3)cc2)cc1,,,MIC90,0.015–8 µg/mL
O=C(O)/C=C/c1ccc(O)cc1,,agar,MIC100,>1000 µg/mL
O=C/C=C/c1ccccc1,NRRL 501,broth dilution,MFC,160 µg/mL
C=CCc1ccc(O)c(OC)c1,,agar,MIC100,478 µg/mL
C[C@@H](c1ncncc1F)[C@](O)(Cn1cncn1)c1ccc(F)cc1F,,,MIC90,0.5–2 µg/mL
CNC1=CC(=O)c2ccccc2C1=O,MTCC 277,broth dilution,MIC100,250 µg/mL
O=C(O)c1cc(O)c(O)c(O)c1,,agar,MIC50,>1000 µg/mL

Repeating the first 2 entries:

SMILES | strain or isolate | method | read-out | result
C[C@@H](c1nc(-c2ccc(C#N)cc2)cs1)[C@](O)(Cn1cncn1)c1cc(F)ccc1F |  |  | MIC90 | 1–16 µg/mL
CN(C)C1=NC(=O)/C(=C/c2ccccc2)S1 | ATCC 9170 | broth dilution | MIC100 | >250 µg/mL

An empty or dashed field is not shown. Rows are shuffled and stem from different studies. a–b is a range or a potency band.